Results of unrelated studies side by side (data: NIAID ChemDB).

Shared fields: tests in culture; species: HIV-2; read-out: EC50

Two numbers with a dash give a range or band. ECn: concentration that inhibits the pathogen or its effect by n%. Blank or dashed fields: not listed here. Neighbouring rows are from separate reports.

compound	cell line	strain	value
CC(c1nnc(SCc2ccc(Br)cc2)o1)N(Cc1ccc(Br)cc1)S(=O)(=O)c1ccc(Cl)cc1	MT-4	ROD	>125 µg/mL
Cc1cn([C@H]2C=C[C@@H](CO)O2)c(=O)[nH]c1=O	CEM	-	0.77 µM
C=C1[C@H](CO)[C@H]1Cn1cnc2nc(N)nc(Cl)c21	-	-	>100 µM
CCOC(=O)c1nnsc1NCc1ccccc1N	-	ROD	>290 µM
C=C1[C@H](CO)[C@H]1Cn1cnc2c(Cl)nc(N)nc21	-	-	>100 µM
c1ccc(CNCc2ccc(CN3CCCNCCNCCCNCC3)cc2)nc1	-	ECO	0.03 µg/mL
CCc1c(Sc2cc(C)cc(C)c2)n(CCCCC(=O)OC)c(=O)[nH]c1=O	PBMC	D194	>10 µM
CC1(C)[C@@H](CO)CC[C@@]1(C)Cn1cnc2c(=O)[nH]cnc21	CEM + CEM/0	-	>100 µg/mL
C=C1[C@H](CO)[C@H]1Cn1cnc2c(Cl)ncnc21	-	-	>100 µM
Nc1nc(=O)n([C@@H]2C[C@@H](F)[C@H](CO)O2)cc1Cl	CEM + CEM/O	ROD	>50 µM
OC[C@H]1CC(n2cnc3c(NC4CC4)ncnc32)C[C@@H]1CO	CEM	-	>100 µg/mL
[N-]=[N+]=N[C@H]1C[C@H](n2cc(CCO)c(=O)[nH]c2=O)O[C@@H]1CO	CEM	ROD	>300 µM
CN(C)c1ncnc2c1ncn2[C@@H]1O[C@H](CO)C[C@@H]1N=[N+]=[N-]	MT-4	ROD	>81 µg/mL
COC(=O)[C@H](C)NP(=O)(OC[C@@H]1C=C[C@H](n2cc(C)c(=O)[nH]c2=O)O1)Oc1ccccc1	CEM + CEM/O	ROD	0.102 µM
CCCn1c(Sc2cc[n+]([O-])cc2)c([N+](=O)[O-])c(=O)[nH]c1=O	MT-4	ROD	>0.313 µg/mL
CCOC(=O)C(C(=O)OCC)=C1NC(=O)N([C@H]2C[C@H](N=[N+]=[N-])[C@@H](CO)O2)C=C1C	CEM	ROD	40 µM
O=C1c2cc(-c3ccccc3)sc2N(Cc2ccccc2)S(=O)(=O)N1CCOCCO	CEM	-	>400 µg/mL
Cc1cn([C@@H]2O[C@H](CN3CCN(C)CC3)C3(OS(=O)(=O)C=C3N)[C@H]2O[Si](C)(C)C(C)(C)C)c(=O)n(C)c1=O	MT-4	-	>50 µM
[N-]=[N+]=N[C@H]1C[C@H](n2cc3c(nc2=O)NOCC3)O[C@@H]1CO	CEM	ROD	200 µM
CCS[C@]12CS(=O)(=O)O[C@@]13[C@@H](CN2)O[C@@H](n1cc(C)c(=O)[nH]c1=O)[C@@H]3O[Si](C)(C)C(C)(C)C	CEM	ROD	>50 µM
Cn1c(Sc2ccccc2)c([N+](=O)[O-])c(=O)n(C)c1=O	MT-4	ROD	>81.2 µg/mL
Cc1ccc(S(=O)(=O)NC(Cc2ccccc2)c2nnc(SCc3ccc(Br)cc3)o2)cc1	MT-4	ROD	>82.1 µg/mL
Cn1c(Sc2cc[n+]([O-])cc2)c([N+](=O)[O-])c(=O)n(C)c1=O	MT-4	ROD	>0.275 µg/mL
CSCCC(NS(=O)(=O)c1ccc(Cl)cc1)c1nnc(SCc2ccc(Br)cc2)o1	MT-4	ROD	>12.3 µg/mL
Nc1ccc([C@H]2CC(=O)[C@@H](CO)O2)c(F)c1	CEM	-	>250 µM
Cc1cn([C@@H]2O[C@H](COC(=O)N(C)C)C3(OS(=O)(=O)C=C3N)[C@H]2O[Si](C)(C)C(C)(C)C)c(=O)n(C)c1=O	MT-4	-	>50 µM
CC1(C)[C@@H](CO)CC[C@@]1(C)Cn1ccc(=O)[nH]c1=O	CEM + CEM/0	-	>100 µg/mL
O=C1c2sc(-c3ccccc3)cc2NS(=O)(=O)N1Cc1ccccc1	CEM	-	>400 µg/mL
CC1(C)[C@@H](CO)CC[C@@]1(C)Cn1nnc2c(N)ncnc21	CEM + CEM/0	-	>100 µg/mL
Nc1nc(Sc2ccccc2)c([N+](=O)[O-])c(=O)[nH]1	MT-4	ROD	>88.07 µg/mL
O=c1nc2c(cn1[C@H]1C[C@H](O)[C@@H](CO)O1)CCON2	CEM	ROD	>300 µM
CC1CCC(C(C)C)/C(=N/NC(=O)Nc2ccc(Cl)cc2)C1	MT-4	ROD	>28.4 µg/mL
CCOC(=O)C1=C2NC(=O)N([C@H]3C[C@H](N=[N+]=[N-])[C@@H](CO)O3)C=C2COC1=O	CEM	ROD	>300 µM
CSCCC(c1nnc(SCc2ccc(F)cc2)o1)N(Cc1ccc(F)cc1)S(=O)(=O)c1ccc(C)cc1	MT-4	ROD	>125 µg/mL
CC1CCC(C(C)C)/C(=N/NC(=S)Nc2ccccc2)C1	MT-4	ROD	>108.1 µg/mL
[N-]=[N+]=N[C@H]1C[C@@H](CO)O[C@H]1n1cnc2c(NC3CCCC3)ncnc21	MT-4	ROD	>125 µg/mL
COC(=O)CC(OP(=O)(OC[C@@H]1C=C[C@H](n2cc(C)c(=O)[nH]c2=O)O1)OC(CC(=O)OC)c1ccc(OC(C)=O)cc1)c1ccc(OC(C)=O)cc1	CEM + CEM TK-	-	0.2 µM
Cc1cn([C@@H]2O[C@@H]3CN[C@@]4(C(N)=O)CS(=O)(=O)O[C@@]34[C@H]2O[Si](C)(C)C(C)(C)C)c(=O)[nH]c1=O	CEM	ROD	>125 µM
O=c1[nH]c(=O)n([C@@H]2C[C@H](CO)C[C@H]2CO)cc1I	CEM	-	>100 µg/mL
CCOC(=O)C(C(=O)OCC)=C1C=CN([C@H]2C[C@H](N=[N+]=[N-])[C@@H](CO)O2)C(=O)N1	CEM	ROD	>300 µM
C=C1[C@H](CO)[C@H]1Cn1cnc2ncnc(Cl)c21	-	-	>100 µM
Cc1cn([C@@H]2O[C@H](COC(=O)C(C)C)C3(OS(=O)(=O)C=C3N)[C@H]2O[Si](C)(C)C(C)(C)C)c(=O)n(C)c1=O	MT-4	-	>50 µM
CC(=O)OCCOCCN1C(=O)c2cc(-c3ccccc3)sc2N(Cc2ccccc2)S1(=O)=O	CEM	-	>400 µg/mL
Cc1cn([C@@H]2O[C@H](CN3CCN(Cc4ccccc4)CC3)C3(OS(=O)(=O)C=C3N)[C@H]2O[Si](C)(C)C(C)(C)C)c(=O)n(C)c1=O	MT-4	-	>50 µM
CCCn1c(Sc2ccncc2)c([N+](=O)[O-])c(=O)[nH]c1=O	MT-4	ROD	>76.63 µg/mL
O=c1[nH]c(=O)n([C@@H]2C[C@@H](F)[C@H](CO)O2)cc1Cl	CEM + CEM/O	ROD	>250 µM
Cc1cn([C@@H]2O[C@H](COS(=O)(=O)c3ccccc3)C3(OS(=O)(=O)C=C3N)[C@H]2O[Si](C)(C)C(C)(C)C)c(=O)n(C)c1=O	CEM + CEM/0	-	>6.2 µM
CC1CCC(C(C)C)/C(=N/NC(=S)Nc2ccc(Cl)cc2)C1	MT-4	ROD	>2.4 µg/mL
COC(=O)CNP(=O)(OC[C@@H]1C=C[C@H](n2cc(C)c(=O)[nH]c2=O)O1)Oc1ccccc1	CEM + CEM TK-	-	7 µM
CC1(C)[C@@H](CO)CC[C@@]1(C)Cn1nnc2c(=O)[nH]cnc21	CEM + CEM/0	-	>100 µg/mL
COC(=O)C(C)(C)NP(=O)(OC[C@@H]1C=C[C@H](n2cc(C)c(=O)[nH]c2=O)O1)Oc1ccccc1	CEM + CEM TK-	-	0.6 µM
CCO[C@]12CS(=O)(=O)O[C@@]13C(CN2)O[C@@H](n1cc(C)c(=O)[nH]c1=O)[C@@H]3O[Si](C)(C)C(C)(C)C	CEM	ROD	>50 µM
Cc1cn([C@H]2C=C[C@@H](CO)O2)c(=O)[nH]c1=O	CEM	-	0.25 µM
Nn1ccnc1	-	ROD	0.2–4 µg/mL
Cc1ccc(S(=O)(=O)NC(C)c2nnc(SCc3ccc(Br)cc3)o2)cc1	MT-4	ROD	>75.33 µg/mL
COP(=O)(c1cc(C)cc(CCC#N)c1)c1c(C(N)=O)[nH]c2ccc(Cl)c(F)c12	H9	ROD	>1.25 µM
Nc1nc(=O)n([C@@H]2CC[C@H](CO)O2)cc1Cl	CEM + CEM/O	ROD	>250 µM
CC(C)Nc1ncnc2c1ncn2C1C[C@H](CO)[C@@H](CO)C1	CEM	-	>100 µg/mL
CSCCC(c1nnc(SCc2ccc(Br)cc2)o1)N(Cc1ccc(Br)cc1)S(=O)(=O)c1ccc(C)cc1	MT-4	ROD	>125 µg/mL
CO[C@@H]1C[C@H](n2ncc3c(N)ncnc32)[C@@H](O)[C@H]1O	CEM	ROD	>250 µg/mL
O=c1[nH]c(=O)n([C@H]2C[C@H](F)[C@@H](CO)O2)cc1Cl	CEM + CEM/O	ROD	2.5 µM
Cc1cn([C@H]2C=C[C@@H](CO)O2)c(=O)[nH]c1=O	CEM + CEM TK-	ROD	25 µM
CO[C@H]1C[C@@H](n2cnc3c(N)ncnc32)[C@H](O)[C@@H]1O	CEM	ROD	>250 µg/mL
CC(C)=CCOC[C@H]1O[C@@H](n2cc(C)c(=O)n(C)c2=O)[C@H](O[Si](C)(C)C(C)(C)C)C12OS(=O)(=O)C=C2N	MT-4	-	>10 µM

Again, the opening 8 rows:

{"compound": "CC(c1nnc(SCc2ccc(Br)cc2)o1)N(Cc1ccc(Br)cc1)S(=O)(=O)c1ccc(Cl)cc1", "cell line": "MT-4", "strain": "ROD", "value": ">125 µg/mL"}
{"compound": "Cc1cn([C@H]2C=C[C@@H](CO)O2)c(=O)[nH]c1=O", "cell line": "CEM", "value": "0.77 µM"}
{"compound": "C=C1[C@H](CO)[C@H]1Cn1cnc2nc(N)nc(Cl)c21", "value": ">100 µM"}
{"compound": "CCOC(=O)c1nnsc1NCc1ccccc1N", "strain": "ROD", "value": ">290 µM"}
{"compound": "C=C1[C@H](CO)[C@H]1Cn1cnc2c(Cl)nc(N)nc21", "value": ">100 µM"}
{"compound": "c1ccc(CNCc2ccc(CN3CCCNCCNCCCNCC3)cc2)nc1", "strain": "ECO", "value": "0.03 µg/mL"}
{"compound": "CCc1c(Sc2cc(C)cc(C)c2)n(CCCCC(=O)OC)c(=O)[nH]c1=O", "cell line": "PBMC", "strain": "D194", "value": ">10 µM"}
{"compound": "CC1(C)[C@@H](CO)CC[C@@]1(C)Cn1cnc2c(=O)[nH]cnc21", "cell line": "CEM + CEM/0", "value": ">100 µg/mL"}